Pooled drug test results. Numbers come from NIAID ChemDB, via PubChem.

Shared fields: tests on isolated targets; agent: HIV-1; protein: Integrase; read-out: IC50

ICn: concentration for n% inhibition. Two numbers with a dash give a range or band. Rows are shuffled and stem from different studies. An empty or dashed field is not shown.

SMILES	mutations	read by	value
CN(C)C(=O)c1cc(=O)c(O)c2n1CCN(Cc1ccc(Cl)c(Cl)c1)C2=O		ELISA	0.01–0.1 µM
CC(C)n1c(=O)c(O)c2n(c1=O)CCN(Cc1ccc3ccccc3n1)C2=O		strand transfer	<10 µM
O=C1c2c(O)c(=O)c(-c3ccncn3)cn2CCN1Cc1ccc(F)c(Cl)c1		ELISA	0.01–0.1 µM
CN(Cc1ccccc1Cc1ccccc1)C(=O)/C=C(\O)C(=O)O		strand transfer	<70 µM
N#C/C(=C(/O)C(=O)O)c1cn(Cc2ccc(F)cc2)c2ccccc12		strand transfer	10 µM
O=C1c2c(O)c(=O)n(C3CCCC3)c(=O)n2CCN1Cc1ccc(F)cc1		strand transfer	<10 µM
CC(C)(C)C(=O)c1cn2c(c(O)c1=O)C(=O)N(Cc1cccc(Cl)c1F)CC2		ELISA	0.01–0.1 µM
CN(C)CC1c2nc(C(=O)NCc3ccc(F)cc3)c(O)c(=O)n2CCN1Cc1cocn1		ELISA	<10 µM
CC(C)(C)C(O)Cc1cc(=O)c(O)c2n1CCN(Cc1ccc(F)cc1)C2=O		ELISA	0.01–0.1 µM
Cc1nnc(C(=O)N(C)C2COCCn3c2nc(C(=O)NCc2ccc(F)cc2)c(O)c3=O)o1		ELISA	<10 µM
O=C(Nc1cn2ccn(Cc3cccc(Cl)c3)c(=O)c2c(O)c1=O)c1ccncc1		ELISA	<0.01 µM
CN1CCn2c(nc(C(=O)NCc3ccc(F)cc3)c(O)c2=O)C(NCC2CCCCC2)C1		ELISA	<10 µM
CN(Cc1ccccc1Cc1ccc(F)cc1)C(=O)/C=C(\O)C(=O)O		strand transfer	<70 µM
O=C(Nc1cn2ccn(Cc3cccc(Cl)c3)c(=O)c2c(O)c1=O)c1ccc(F)cc1		ELISA	<0.01 µM
COC(=O)C(=O)c1c(O)n(-c2ccccc2)c2ccccc12		strand transfer	273 µM
Cc1csc(-c2cn3ccn(Cc4cccc(Cl)c4)c(=O)c3c(O)c2=O)n1		ELISA	<0.01 µM
CN1CCn2c(nc(C(=O)NCc3ccc(F)cc3)c(O)c2=O)C1CS(C)(=O)=O		ELISA	<10 µM
O=c1c(-c2nccs2)cn2ccn(Cc3ccc(F)cc3)c(=O)c2c1O		ELISA	<0.01 µM
O=C(O)/C(O)=C/C(=O)N(Cc1ccc(Cl)cc1)Cc1ccc(Cl)cc1		strand transfer	<70 µM
N#C/C(=C\c1ccc(O)c(O)c1)C(=O)NCc1ccccc1		3′ processing / substrate cleavage	10–100 µM
O=C1c2c(O)c(=O)n(C(C3CC3)C3CC3)c(=O)n2CCN1Cc1ccc(F)cc1		strand transfer	<10 µM
COc1cc(CN(C)C(=O)/C=C(\O)C(=O)O)ccc1F		strand transfer	<70 µM
N#C/C(=C\c1ccc(O)c(O)c1)C(=O)OCc1ccccc1COC(=O)/C(C#N)=C/c1ccc(O)c(O)c1		strand transfer	0.85 µM
Cc1ccc(-c2c([C@H](OC(C)(C)C)C(=O)O)c(C)nc3ccccc23)cc1C	T174I	strand transfer / fluorescence	0.758 µM
O=C(O)c1ccccc1SCc1cc(O)ccc1O		strand transfer	5–10 µM
O=C(O)/C(O)=C/C(=O)N(CCCc1ccccc1)Cc1ccc(F)cc1		strand transfer	<70 µM
CN(C)S(=O)(=O)N1CCn2c(nc(C(=O)NCc3ccc(F)cc3)c(O)c2=O)C1(C)C		ELISA	<10 µM
CCn1cc(/C(O)=C/C(=O)C(=O)O)c2ccccc21		strand transfer	3 µM
O=C1c2c(O)c(=O)n(CC3COCCO3)c(=O)n2CCN1Cc1ccc(F)cc1		strand transfer	<10 µM
CCn1cc(C2=C(O)C(=O)NC2=O)c2ccccc21		strand transfer	300 µM
N#C/C(=C\c1cc(O)c(O)c(O)c1)C(=O)NCCCNC(=O)/C(C#N)=C/c1cc(O)c(O)c(O)c1		strand transfer	0.16 µM

Repeating the final 2 entries:

SMILES	mutations	read by	value
CCn1cc(C2=C(O)C(=O)NC2=O)c2ccccc21		strand transfer	300 µM
N#C/C(=C\c1cc(O)c(O)c(O)c1)C(=O)NCCCNC(=O)/C(C#N)=C/c1cc(O)c(O)c(O)c1		strand transfer	0.16 µM